# System: HIV virus
# Assay: Test A (XTT): reduction of virus-induced cytotoxicity in MT4 cells
# Assay type: cell-based
# Conditions: for % inhibition: Test A
# Procedure: Tests A, B, C, and D (XTT)
# MT4 cells in a medium of RPMI 1640, 5% FCS, penicillin/streptomycin are adjusted to 2x10^5 cells/ml and seeded into microplates (96 wells/plate) […] cell suspension/well giving 2x10^4 cells/well. The compound to be tested is made into a 10 mg/ml mixture in DMSO and stored at -20°C. […] Further dilutions to […] are made in medium containing microplates. Fifty […] of the 400, 40, and 4 mg/ml are transferred to the cell-containing microplates with a multi-channel pipette (final concentration: […]). Finally, […] of virus suspension is added to each well (with a repetitive "Eppendorf" multipipett). […] The plate is put into a plastic bag and incubated for six days in CO2 atmosphere. To each well in the plate is added […] of XTT ((2,3-bis[2-methoxy-4-nitro-5-sulfophenyl]-5-[(phenylamin o)carbonyl]-2H-tetrazolium hydroxide), (1 mg/ml 0.01-0.02 mM N-metyl-phenazonium methosulfate). After six hours of incubation in CO2 atmosphere the plates are covered with adhesive plate sealers and gently mixed on a vortex. Optical densities are determined at a wavelength of 450 nm and a reference wavelength of 650 nm. The percent reduction of cytotoxocity caused by the virus infection is calculated as follows: (OD450 compound - OD450 inf cells)/(OD450 uninf cells - OD450 inf cells)x 100 [formula]
smiles,measurement,setting,value
CCOc1ccc(F)c(CCNC(=O)Nc2ccc(Br)cn2)c1Cl,inhibition at 10 µg/mL,"Human immunodeficiency virus 1, MT4, Test A, 10 µg/ml",83%
same,% inhibition,0.01 µg/ml,82%
same,% inhibition,0.1 µg/ml,89%

# — EP0706514B1, “COMPOUNDS AND METHODS FOR INHIBITION OF HIV AND RELATED VIRUSES” (MEDIVIR AB, priority 1993, dated 1995)
